Assay results published in patent US20210324003A1.

Molecular target: MT145K SOSIP.664 trimer (MT145 Q171K)
Assay: ELISA
Design: unit not given beside the values
Conditions: Fc fusion

Substance: Human CD4-IgG2 immunoadhesin (from UniProt P01730 26-204)
- EC50: 0.562 ?
